Measured values from several laboratories, pooled; numbers as filed in NIAID ChemDB.

Shared fields: enzyme or target tests

Percent inhibition refers to the dose given; in toxicity tests it is the harm to the cells. Blank or dashed fields: not listed here. Conditions beyond the fields shown may differ between rows. Two numbers with a dash give a range or band. ICn: concentration for n% inhibition.

smiles	read-out	protein	read by	dose	changes	result
NC(N)=NCCC[C@H](N)C(=O)NC[C@H]1O[C@H](O[C@H]2[C@H](O)[C@@H](O)[C@H](NC(=O)[C@@H](N)CCCN=C(N)N)C[C@@H]2NC(=O)[C@@H](N)CCCN=C(N)N)[C@H](NC(=O)[C@@H](N)CCCN=C(N)N)[C@@H](O)[C@@H]1O	IC50	CXCR4	flow cytometry	-	-	<10 µM
O=c1[nH]c(=O)n([C@H]2C[C@H](F)[C@@H](CO)O2)cc1Cl	Ki	Thymidine kinase	thymidine uptake / kinase activity	-	-	6.1 µM
OCC12C(c3ccccc3)C3(CO)C4N(Cc5ccccc5)C1C1(CO)C(c5ccccc5)C4(CO)C3N(Cc3ccccc3)C21	IC50	P-glycoprotein	fluorescence	-	-	74.37 µM
OC[C@H]1O[C@@H](n2cnc3cc(Cl)c(Cl)cc32)[C@H](O)[C@@H]1O	IC50	Protein kinase C	-	-	-	>30 µM
CN(CCC(=O)NN)C[C@H]1O[C@@H](n2cnc3c(N)ncnc32)[C@H](O)[C@@H]1O	IC50	S-adenosylmethionine decarboxylase	-	-	-	0.22 µM
O=C(O)c1cc(SSc2ccc([N+](=O)[O-])c(C(=O)O)c2)ccc1[N+](=O)[O-]	IC50	Protein disulfide isomerase	-	-	-	6.8 µM
CC(C)CN(C(=O)O)C1CCN(CCC(CN(C)S(=O)(=O)c2ccccc2)c2ccccc2)CC1	IC50	CCR5	radioligand binding / binding	-	-	0.1 µM
COc1ccnc2[nH]cc(C(=O)C(=O)N3CCN(C(=O)c4ccccc4)C[C@H]3C)c12	IC50	gp120	ELISA	-	-	1.3 µM
N#CCCn1c2ccc(O)cc2c2c3c(c4c5cc(O)ccc5[nH]c4c21)C(=O)NC3	IC50	cAMP-dependent protein kinase	-	-	-	0.48 µM
CN(CCCNN)C[C@H]1O[C@@H](n2cnc3c(N)ncnc32)[C@H](O)[C@@H]1O	IC50	S-adenosylmethionine decarboxylase	-	-	-	0.005 µM
CN(C[C@@H](CCN1CCC2(CC1)CC(=O)c1ccccc1O2)c1cccc(Cl)c1)S(=O)(=O)c1ccccc1	inhibition	CCR5	radioligand binding / binding	1 µM	-	42%
CSc1sc(C(N)=O)c2c1-c1nocc1CC2	IC50	Protein kinase C	-	-	-	>30 µM
NC[C@H]1O[C@H](O[C@H]2[C@H](O)[C@@H](O)[C@H](N)C[C@@H]2N)[C@H](N)[C@@H](O)[C@@H]1O	inhibition	CXCR4	flow cytometry	20 µM	-	0%
Cn1c2ccccc2c2c3c(c4c5ccccc5n(CC(F)F)c4c21)CNC3=O	IC50	cGMP-dependent kinase	-	-	-	0.71 µM
CN1CC[C@H](c2c(O)cc(O)c3c(=O)cc(-c4ccccc4F)oc23)[C@H](O)C1	IC50	Cyclin-dependent kinase 7	kinase activity	-	-	10 µM
C[C@@H](O)[C@H](NC(=O)OCc1ccccc1)C(=O)N[C@@H](CO)C(=O)NN	IC50	Ornithine decarboxylase	-	-	-	0.045 µM
O=C(O[C@@H]1Cc2c(O)cc(O)cc2O[C@@H]1c1cc(O)c(O)c(O)c1)c1cc(O)c(O)c(O)c1	inhibition	CD4	ELISA	50 µM	-	67.1%
NC(N)=NCCC[C@H](N)C(=O)NC[C@@H]1O[C@H](O[C@H]2[C@@H](O)[C@H](O[C@@H]3[C@@H](O)[C@H](N)C[C@H](N)[C@H]3O[C@H]3O[C@H](CO)[C@@H](O)[C@H](O)[C@H]3N)O[C@@H]2CO)[C@H](N)[C@@H](O)[C@@H]1O	inhibition	CXCR4	flow cytometry	10 µM	-	16%
CN(C)CCCn1c2ccc(O)cc2c2c3c(c4c5cc(O)ccc5[nH]c4c21)C(=O)NC3=O	IC50	Protein kinase C	-	-	-	0.014 µM
NC(N)=NCCCC(N)C(=O)NC[C@H]1O[C@H](O[C@H]2[C@H](O)[C@@H](O)[C@H](N)C[C@@H]2N)[C@H](N)[C@@H](O)[C@@H]1O	IC50	CXCR4	flow cytometry	-	-	>10 µM
NC(N)=NCCC[C@@H]1NC(=O)[C@H](CCCN=C(N)N)NC(=O)[C@@H](Cc2cnc[nH]2)NC(=O)CNC(=O)[C@H](Cc2ccc3ccccc3c2)NC1=O	IC50	CXCR4	radiometric	-	-	0.15 µM
CC(C)(C)NC(=O)[C@@H]1CN(Cc2cnc3occc3c2)CCN1C[C@@H](O)C[C@@H](Cc1ccccc1)C(=O)N[C@H]1c2ccccc2C[C@H]1O	inhibition	Cytochrome P450	-	10 µM	-	40–60%
O=C(O)c1cc(O)cc(O)c1N=Nc1ccc(/C=C/c2ccc(N=Nc3c(O)cc(O)cc3C(=O)O)cc2S(=O)(=O)O)c(S(=O)(=O)O)c1	inhibition	gp120	-	0.8 µM	-	100%
O=C1N(Cc2ccc(CO)cc2)[C@H](Cc2ccccc2)[C@H](O)[C@@H](O)[C@@H](Cc2ccccc2)N1Cc1ccc(CO)cc1	inhibition	Cathepsin G	-	80 µM	-	0%
NC(N)=NCCC[C@H](N)C(=O)NC[C@@H]1OC(O[C@H]2[C@@H](O)[C@H](O[C@@H]3[C@@H](O)[C@H](NC(=O)[C@@H](N)CCCN=C(N)N)C[C@H](NC(=O)[C@@H](N)CCCN=C(N)N)[C@H]3O[C@H]3O[C@H](CNC(=O)[C@@H](N)CCCN=C(N)N)[C@@H](O)[C@H](O)[C@H]3NC(=O)[C@@H](N)CCCN=C(N)N)O[C@@H]2CO)[C@H](NC(=O)[C@@H](N)CCCN=C(N)N)[C@@H](O)[C@@H]1O	inhibition	CXCR4	flow cytometry	10 µM	-	90%
Cc1cc(SC2=C(O)C[C@@](CCc3ccc(O)cc3)(C(C)C)OC2=O)c(C(C)(C)C)cc1CO	inhibition	Cytochrome P450 2D6	-	1 µM	-	5%
C[C@H]1NC(=O)CNC(=O)[C@H](Cc2ccc3ccccc3c2)NC(=O)[C@H](CCCN=C(N)N)NC(=O)[C@H](CCCN=C(N)N)NC1=O	IC50	CXCR4	radiometric	-	-	>1 µM
O=C(C1CCCCC1)N1C[C@H](CN2CCC(c3ccccc3)CC2)[C@@H](c2ccccc2)C1	IC50	CCR5	radiometric	-	CCR5-D276A	0.072 µM
CCCN(C(=O)N(C)Cc1ccccc1)C1CCN(CCC(CN(C)S(=O)(=O)c2ccccc2)c2ccccc2)CC1	IC50	CCR5	radioligand binding / binding	-	-	>0.02 µM
CC(C)[C@H](C(=O)O)N1C[C@H](CN2CCC(c3ccc(F)cc3)CC2)[C@@H](c2ccccc2)C1	IC50	L-type Ca2+ channel	-	-	-	>10 µM
Nc1ncnc2c1ncn2CCOCP(=O)(O)O	IC50	Nucleotidase	-	-	-	>500 µM
Clc1nc2cc(Br)c(Br)cc2[nH]1	IC50	Protein kinase A	-	-	-	>30 µM
CN1Cc2c(c3c4ccccc4n(C)c3c3c2c2ccccc2n3CCC#N)C1=O	IC50	Myosin light-chain kinase	-	-	-	>10 µM
NC(N)=NCCC[C@@H]1NC(=O)[C@H](Cc2ccc(F)cc2)NC(=O)[C@@H](Cc2ccc(O)cc2)NC(=O)CNC(=O)[C@H](Cc2ccc3ccccc3c2)NC1=O	IC50	CXCR4	radiometric	-	-	0.057 µM
CCCCCCCCCCCCCCCCOC[C@H](CCl)OP(=O)(O)OCC[N+](C)(C)C	inhibition	Protein kinase C	-	19 µM	-	86%
O=S(=O)(c1cccc2cnccc12)N1CCNCC1	IC50	Protein kinase A	-	-	-	2 µM
C=CCN(C(=O)OCc1ccc([N+](=O)[O-])cc1)C1CCN(CC[C@](C)(CN(C)S(=O)(=O)c2ccccc2)c2ccccc2)CC1	IC50	CCR5	radiometric	-	-	0.0017 µM
O=c1[nH]c(=O)n([C@H]2C[C@H](F)[C@@H](CO)O2)cc1Br	Ki	Thymidine kinase	thymidine uptake / kinase activity	-	-	5.7 µM
[N-]=[N+]=N[C@H]1C[C@H](n2cc(I)c(=O)[nH]c2=O)O[C@@H]1CO	Ki	Thymidine kinase	nucleotide incorporation	-	-	2.63 µM
CCCOC(=O)N(CC1CCCCC1)C1CCN(CCC(CN(C)S(=O)(=O)c2ccccc2)c2ccccc2)CC1	IC50	CCR5	radioligand binding / binding	-	-	0.1 µM
O=Nc1c(-c2c(O)[nH]c3ccccc23)[nH]c2ccccc12	IC50	Cyclin-dependent kinase 9	radiometric	-	-	0.05 µM
CN(C[C@@H](CCc1ccc(-c2ccccc2)cc1)c1cccc(Cl)c1)S(=O)(=O)c1ccccc1	IC50	CCR5	radioligand binding / binding	-	-	30 µM
NC(N)=NCCC[C@@H]1NC(=O)[C@@H](Cc2ccc(O)cc2)NC(=O)CNC(=O)[C@H](Cc2ccc3ccccc3c2)NC(=O)[C@H](CCC(=O)O)NC1=O	IC50	CXCR4	radiometric	-	-	>1 µM
CN1C(=O)C(c2cc(Cl)c(O)c(Cl)c2)NC(=O)[C@@H]2NC(=O)C(c3cc(Cl)c(O)c(Cl)c3)NC(=O)[C@H](NC(=O)C(=O)c3cc(Cl)c(O)c(Cl)c3)Cc3c[nH]c4c(cccc34)-c3cc2cc(c3O)Oc2ccc(cc2)CC1C(=O)NC(C(=O)O)c1ccc(O)cc1	IC50	gp120	ELISA	-	-	<10 µg/mL

The last 4 rows once more:

| smiles | read-out | protein | read by | dose | changes | result |
|---|---|---|---|---|---|---|
| O=Nc1c(-c2c(O)[nH]c3ccccc23)[nH]c2ccccc12 | IC50 | Cyclin-dependent kinase 9 | radiometric | - | - | 0.05 µM |
| CN(C[C@@H](CCc1ccc(-c2ccccc2)cc1)c1cccc(Cl)c1)S(=O)(=O)c1ccccc1 | IC50 | CCR5 | radioligand binding / binding | - | - | 30 µM |
| NC(N)=NCCC[C@@H]1NC(=O)[C@@H](Cc2ccc(O)cc2)NC(=O)CNC(=O)[C@H](Cc2ccc3ccccc3c2)NC(=O)[C@H](CCC(=O)O)NC1=O | IC50 | CXCR4 | radiometric | - | - | >1 µM |
| CN1C(=O)C(c2cc(Cl)c(O)c(Cl)c2)NC(=O)[C@@H]2NC(=O)C(c3cc(Cl)c(O)c(Cl)c3)NC(=O)[C@H](NC(=O)C(=O)c3cc(Cl)c(O)c(Cl)c3)Cc3c[nH]c4c(cccc34)-c3cc2cc(c3O)Oc2ccc(cc2)CC1C(=O)NC(C(=O)O)c1ccc(O)cc1 | IC50 | gp120 | ELISA | - | - | <10 µg/mL |